Results of unrelated studies side by side (data: NIAID ChemDB).

Common to all: whole-cell or culture tests; agent: HIV-1; measure: EC50

a–b is a range or a potency band.

c1ccc(CNCc2ccc(CN3CCCNCCNCCCNCC3)cc2)nc1 ; strain or isolate: RF ; result: 0.001–0.01 µg/mL
Cc1ccccc1CNC(=O)C1N(C(=O)[C@@H](O)[C@H](Cc2cccc(F)c2)NC(=O)c2cccc(O)c2C)CC(F)(F)C1(C)C ; result: 0.016 µM
CC(CCC(=O)N[C@@H](Cc1ccc(O)cc1)C(=O)O)C1CCC2C3CCC4C[C@H](O)CCC4(C)C3C[C@H](O)C12C ; read by: p24 / ELISA ; result: 21.5 µg/mL
FC(F)(Sc1ncccn1)c1nc2ccccc2o1 ; strain or isolate: 4xAZT(RT-D67N K70R T215Y K219Q) ; changes: RT-D67N K70R T215Y K219Q ; result: 0.373 µM
CCO[C@H]1OC[C@H](Cc2ccc(O)c(OC)c2)[C@H]1Cc1ccc(O)c(OC)c1 ; read by: cytopathic effect ; result: 2.09 µg/mL
CC1(C)O[C@H]2[C@H](n3cnc4c(N)ncnc43)O[C@](F)(CI)[C@H]2O1 ; result: <10 µM
Nc1ncc2ncn(CC3(OCP(=O)(O)O)CC3)c2n1 ; result: >30 µM
CCC(CC)N=C(N)c1ccc(-c2ccc(-c3ccc(C(N)=NC(CC)CC)cc3)o2)cc1 ; result: 7 µM
CCOP(=O)(OCC)C(F)(F)C[C@H]1CO[C@@H](n2cnc3c(N)nc(F)nc32)[C@H]1F ; read by: cytopathic effect ; result: 79 µM
O=c1c2cc(O)ccc2oc2cccc(O)c12 ; result: 1 µg/mL
CNCCNS(=O)(=O)c1cccc2cnccc12 ; strain or isolate: LAI ; result: >16.7 µM
CC[C@@H]1O[C@](/C=C/C2CC2)(C(F)(F)F)c2cc(F)ccc2NC1=O ; changes: RT-K103N ; result: <0.07 µM
O=C1c2c(O)c(O)cc(S(=O)(=O)NCCCNS(=O)(=O)c3cc(O)c(O)c4c3CN(Cc3ccc(F)c(Cl)c3)C4=O)c2CN1Cc1ccc(F)c(Cl)c1 ; result: 5.7 µM
C=C1[C@H](CO)[C@H]1Cn1cnc2c(=O)[nH]cnc21 ; result: >100 µM
CC[C@@H]1O[C@](/C=C/C2CC2)(C(F)(F)F)c2cc(Cl)ccc2NC1=O ; changes: RT-K103N ; result: <0.013 µM
Nc1ncnc2c1ncn2[C@@H]1C[C@H](CO)C2CC21 ; result: >100 µg/mL
Nc1ccn([C@H]2CC[C@@H](CO)O2)c(=O)n1 ; strain or isolate: NL4-3 ; changes: N43K ; read by: β-galactosidase ; result: 0.22 µM
CN1C(c2ccc(F)cc2)c2ccccc2S1(=O)=O ; read by: p24 / RT activity ; result: 37.5 µM
Nc1nc2c(ncn2[C@@H]2OC[C@H](CC(F)(F)P(=O)(O)O)[C@@H]2F)c(=O)[nH]1 ; read by: cytopathic effect ; result: 66.3 µM
CCc1c(OC)nc(OC)nc1C(=O)c1ccccc1 ; result: 3.15 µM
OC[C@H]1C[C@@H](n2cnc3c(Cl)ncnc32)C2CC21 ; result: >100 µg/mL
Nc1ccn([C@@H]2O[C@H](CO)[C@@H](O)[C@H]2C(F)(F)F)c(=O)n1 ; result: >100 µM
Cc1cccc(O)c1CNC(=O)[C@H]1N(C(=O)[C@@H](O)[C@H](CCc2ccccc2)NC(=O)c2cccc(O)c2C)CSC1(C)C ; result: 0.12 µM
C=C1[C@H](CO)OC[C@@H]1n1ccc(=O)[nH]c1=O ; result: >100 µM
O=C1c2c(O)c(O)cc(S(=O)(=O)NCCCCCNS(=O)(=O)c3cc(O)c(O)c4c3CN(Cc3ccc(F)c(Cl)c3)C4=O)c2CN1Cc1ccc(F)c(Cl)c1 ; result: 5.3 µM
O=c1[nH]cnc2c1ncn2C/C=C(/CO)c1ccccc1 ; result: >100 µg/mL
CCOP(=O)(OCC)C(F)(F)C[C@H]1CO[C@@H](n2cnc3c(N)ncnc32)[C@H]1F ; read by: cytopathic effect ; result: >100 µM
CN(C)CCCOc1c(Br)c(Br)c(Br)c2c1OC(C)(C)C2 ; result: 200 µM
CN1C(c2c(Cl)cccc2Cl)c2ccccc2S1(=O)=O ; read by: p24 / RT activity ; result: 5.09 µM
Cc1ccnc(SC(F)(F)c2nc3ccccc3o2)n1 ; strain or isolate: ddI-resistant (RT L74V) ; changes: RT-L74V ; result: 0.159 µM
C[C@@H]1O[C@](C#CC2CC2)(C(F)(F)F)c2cc(Cl)ccc2NC1=O ; changes: RT-K103N ; result: <0.029 µM
C=C(COCP(=O)(O)O)Nn1cnc2c(N)ncnc21 ; result: >10 µM
C/C(=C\Cn1cnc2c(N)ncnc21)CO ; result: >100 µg/mL
Cc1cn([C@@H]2O[C@H](CO)C3C2C3(F)F)c(=O)[nH]c1=O ; result: 11 µM
O=S(=O)(c1ccc(Cl)c2ccncc12)N1CCNCC1 ; strain or isolate: LAI ; result: >16.7 µM
CC(C)(C)NC(=O)[C@@H]1CCCN1C(=O)[C@@H](O)[C@H](Cc1ccccc1)NC(=O)[C@H](CC(N)=O)NC(=O)COc1ccc([N+](=O)[O-])cc1 ; result: 4.5 µg/mL
C=C1[C@H](CO)[C@H]1Cn1cnc2c(Cl)nc(N)nc21 ; result: >100 µM
CN1C(c2c(F)c(F)c(F)c(F)c2F)c2ccccc2S1(=O)=O ; read by: p24 / RT activity ; result: 40.2 µM
NCCNS(=O)(=O)c1cccc2c(Cl)cccc12 ; strain or isolate: LAI ; result: >16.7 µM
Cc1cn([C@@H]2OC[C@H](CC(F)(F)P(=O)(O)O)[C@@H]2F)c(=O)[nH]c1=O ; read by: cytopathic effect ; result: >100 µM
O=S(=O)(c1cccc2cnccc12)N1CCCNCC1 ; strain or isolate: LAI ; result: >16.7 µM
C/C(=C\Cn1cnc2c(Cl)ncnc21)CO ; result: >100 µg/mL
CC(=O)Nc1ccc(S(=O)(=O)N(CC(C)C)C[C@@H](O)[C@H](CCc2ccccc2)NC(=O)Cc2c[nH]c3ccccc23)cc1 ; result: 1 µM
C[C@@H]1O[C@](/C=C/C2CC2)(C(F)(F)F)c2cc(F)ccc2NC1=O ; changes: RT-K103N ; result: <0.118 µM
CC(C)(C)C(=O)Nc1ccn([C@H]2CC[C@@H](CO)O2)c(=O)n1 ; read by: cytopathic effect ; result: >100 µM
O=c1ccn([C@@H]2C[C@H](CO)CO2)c(=O)[nH]1 ; result: >100 µM
CN=C1Cc2cc(S(=O)(=O)N(CC(C)C)C[C@@H](O)[C@H](Cc3ccccc3)NC(=O)OC3CO[C@H]4OC[C@H](OCc5ccccc5)[C@@H]34)ccc2N1 ; strain or isolate: IIIB ; result: 0.0008 µM
C=C1[C@H](CO)[C@H]1Cn1cnc2c(N)nc(N)nc21 ; result: >100 µM
Cc1ccccc1CNC(=O)[C@H]1N(C(=O)[C@@H](O)[C@H](CCc2ccccc2)NC(=O)O[C@H]2CO[C@H]3OCC[C@H]32)CSC1(C)C ; strain or isolate: ERS104pre ; result: 0.031 µM
Cc1cn([C@H]2C[C@H](N=[N+]=[N-])[C@@H](CO)O2)c(=O)[nH]c1=O ; read by: cytopathic effect ; result: 0.007 µM
O=S(=O)(c1cccc2cnccc12)N1CCNCC1 ; strain or isolate: LAI ; result: <16.7 µM
Nc1nc2c(ncn2[C@@H]2C[C@H](CO)CO2)c(=O)[nH]1 ; result: >100 µM
Nc1ncnc2c1ncn2[C@@H]1O[C@H](CO)[C@@H](O)[C@H]1C(F)(F)F ; result: >100 µM
CC[C@@H]1O[C@](C#CC2CC2)(C(F)(F)F)c2cc(Cl)ccc2NC1=O ; changes: RT-K103N ; result: <0.139 µM
CC(C)c1c(Cc2ccccc2)n(COCc2ccc(/C(O)=C/C(=O)C(=O)O)cc2)c(=O)[nH]c1=O ; result: 0.033 µM
C[C@@H]1O[C@](/C=C/C2CC2)(C(F)(F)F)c2cc(Cl)ccc2NC1=O ; changes: RT-K103N ; result: <0.035 µM
N#C[C@]1(CO)O[C@@H](n2cnc3c(=O)[nH]c(N)nc32)C[C@@H]1O ; strain or isolate: LAI ; read by: cytopathic effect / MTT ; result: <0.03 µM
C=CCC1CCn2c(=S)[nH]c3cccc(c32)C1 ; result: 1–2 µM
CC(C)(C)NC(=O)[C@@H]1C[C@H](O)CN1C(=O)[C@@H](O)[C@H](Cc1ccccc1)NC(=O)[C@H](CC(N)=O)NC(=O)OCc1ccccc1 ; result: 10–30 µg/mL
CC(=O)Nc1ccc(S(=O)(=O)N(CC(C)C)C[C@@H](O)[C@H](CCc2ccccc2)NC(=O)Cn2c(=O)oc3ccccc32)cc1 ; result: 0.8 µM
CCC#C[C@]1(C(F)(F)F)OCC(=O)Nc2ccc(Cl)cc21 ; changes: RT-K103N ; result: <1.763 µM
Cc1cn(CC2(OCP(=O)(O)O)CC2)c(=O)[nH]c1=O ; result: >30 µM
C/C(=C\Cn1cnc2c(=O)[nH]c(N)nc21)CO ; result: >100 µg/mL
CCC(=O)OC[C@@H]1CC[C@H](n2ccc(N)nc2=O)O1 ; read by: cytopathic effect ; result: 1.6 µM
Nn1ccnc1 ; strain or isolate: NL4-3 ; result: 0.2–4 µg/mL
C#C[C@]1(CO)O[C@@H](n2cnc3c(N)nc(F)nc32)C[C@@H]1O ; strain or isolate: JR-FL ; result: <0.001 µM
COC(=O)C(=O)N1CCC[C@H]1C(=O)N[C@@H](Cc1ccccc1)C(=O)Nc1ccccc1OCC(=O)N[C@@H](CC(N)=O)C(=O)N[C@@H](Cc1ccccc1)[C@H](O)C(=O)N1CCC[C@H]1C(=O)NC(C)(C)C ; result: 60 µg/mL
CCCOc1nc(N)nc2c1ncn2[C@@H]1C[C@H](CO)C2CC21 ; result: >100 µg/mL
O=C1CO[C@](C#CC2CC2)(C(F)(F)F)c2cc(Cl)ccc2N1 ; changes: RT-K103N ; result: <1.395 µM
Nc1nc(Cl)c2ncn(CC3(OCP(=O)(O)O)CC3)c2n1 ; result: >30 µM
CN(C(=O)[C@@H](CCc1ccccc1)NC(=O)Cc1c[nH]c2ccccc12)c1ccccn1 ; strain or isolate: NL4-3 ; changes: T107N ; read by: cytopathic effect ; result: 28 µM
CCOc1nc(N)nc2c1ncn2CC1(OCP(=O)(O)O)CC1 ; result: >30 µM
CCCCCCCCCCCCCCCCOCCCOP(=O)(O)COCCn1cnc2c(=O)[nH]c(N)nc21 ; read by: p24 ; result: 0.00001 µM
CC(C)(C)NC(=O)[C@@H]1CCCN1C(=O)[C@@H](O)[C@H](Cc1ccccc1)NC(=O)[C@H](CC(N)=O)NC(=O)COc1cccc([N+](=O)[O-])c1 ; result: 6–10 µg/mL
N=C(N)c1ccc(-c2ccc(-c3ccc(C(=N)N)cc3)o2)cc1 ; result: 5 µM
CCOP(=O)(OCC)C(F)(F)C[C@H]1CO[C@@H](n2cnc3c(Cl)nc(N)nc32)[C@H]1F ; read by: cytopathic effect ; result: 72.4 µM
Cc1ccc(C)c(C2c3ccccc3S(=O)(=O)N2C)c1 ; read by: p24 / RT activity ; result: 0.512 µM
COC(=O)Cc1cccc2c1nc(-c1c(F)cccc1F)n2Cc1c(F)cccc1F ; result: 0.06 µM
C=C1[C@H](CO)[C@H]1Cn1cnc2c(Cl)ncnc21 ; result: >100 µM
Nc1ncnc2c1ncn2[C@@H]1OCC(CO)=C1F ; result: >100 µg/mL
Nc1nc2c(ncn2[C@@H]2C[C@H](CO)[C@H]2CO)c(=O)[nH]1 ; result: 0.03 µg/mL
N#C[C@]1(CO)O[C@@H](n2cnc3c(N)ncnc32)C[C@@H]1O ; strain or isolate: LAI ; read by: cytopathic effect / MTT ; result: 0.137 µM

ECn: concentration that inhibits the pathogen or its effect by n%. Rows are shuffled and stem from different studies.